How the values were obtained:
[1] = tested on: HepG2 cells; assay: Cytotoxicity test, MTT method, HepG2 cells; conditions: MLD50/IC50 ratio, HepG2 cells versus L. amazonensis
Protocol: Balb/c murine peritoneal macrophages were obtained as described above. Cytotoxicity was determined using the MTT method (3-(4,5-dimethylthiazol-2-yl)-2,5-diphenyl tetrazolium bromide) (Sigma). HepG2 cells were kept in RPMI medium supplemented with 10% FBS, and confluent monolayers were trypsinized, washed in RPMI, and transferred to 96-well microtiter plates (4 × 10^4 cells/well) for 16–18 h. Murine macrophages were used in the concentration 2 × 10^5 cells/well in 96-well microtiter plates. The compounds were serial diluted in different concentrations (10 → 0.16 mg/mL). In both tests, the medium was removed, and the compounds were incubated for 24 h (37°C, 5% CO2). Colorimetric reaction was developed following the incubation with MTT (37°C, 5% CO2, 4 h) and addition of acidified isopropanol. The reaction was read spectrophotometrically (Spectramax M5, Molecular Devices, San Francisco, CA) with a 570 nm filter and a background of 670 nm. Incubations were tested in triplicate in two independent experiments. The minimum dose that killed 50% of the cells (MLD50) was determined, and the values were plotted to generate dose-response curves using Microcal Origin Software (Northampton, MA, USA).

[2] = tested on: murine macrophages; assay: Cytotoxicity test, MTT method, murine peritoneal macrophages; conditions: MLD50/IC50 ratio, murine macrophages versus L. amazonensis
Protocol: Animals were kept in the Animal Facility of the Centro de Pesquisas René Rachou/FIOCRUZ in strict accordance to the Guide for the Care and Use of Experimental Animals. The procedures were approved by the Internal Ethics Committee in Animal Experimentation (CEUA) of Fundação Oswaldo Cruz (FIOCRUZ), Brazil (Protocol L-042/08). Mice were euthanized with CO2 in an induction chamber prior to macrophage removal. Balb/c mice were injected intraperitoneally with 2 mL of 3% sodium thioglycollate medium. After 72 h, peritoneal macrophages were removed by washing with cold RPMI 1640 medium and enriched by adherence to round glass coverslips (13 mm) placed in a 4-well culture plate. Cells (2 × 10^5 cells/well) were cultured (37°C, 5% CO2, 18 h) in RPMI supplemented with 10% heat-inactivated FBS (fetal bovine serum) prior to infection with parasites. Macrophages were exposed to stationary phase promastigotes (2 × 10^6/well) at a final ratio of 1 : 10. The plates were incubated at 37°C, 5% CO2, for 5 h in BOD to allow internalization of parasites. Then, the medium was removed for the remaining noninternalized parasites. Negative control included only infected macrophages and medium. Incubations were tested in duplicate in two independent experiments. The substances were serial diluted with RPMI 1640 medium supplemented with 10% FBS at five different concentrations (50 → 3.1 μg/mL). For compounds (3) and (6), the dilution was 10 → 0.016 μg/mL. […]
The cell lineage HepG2 A16 was derived from a human hepatocellular carcinoma cell line HepG2 (ATCC HB-8065) and obtained from America Type Culture Collection line (ATCC). […] Cytotoxicity was determined using the MTT method (3-(4,5-dimethylthiazol-2-yl)-2,5-diphenyl tetrazolium bromide) (Sigma). […] The reaction was read spectrophotometrically (Spectramax M5, Molecular Devices, San Francisco, CA) with a 570 nm filter and a background of 670 nm. […] The minimum dose that killed 50% of the cells (MLD50) was determined, and the values were plotted to generate dose-response curves using Microcal Origin Software (Northampton, MA, USA).

Molecule	SI: selective index, HepG2 [1]	SI: selective index, macrophages [2]
(Lp)(Ph3Sn) [(3)]	70.65	9.41
(Lp)(Ph3Sb)OH [(2)]	17.81	
[Cl][Sn]([c]1ccccc1)([c]1ccccc1)[c]1ccccc1 [(6), triphenyltin chloride]	120.35	7.30
[Cl][Sb]([Cl])([c]1ccccc1)([c]1ccccc1)[c]1ccccc1 [(5), triphenylantimony dichloride]	13.56	
[Cl][Bi]([Cl])([c]1ccccc1)([c]1ccccc1)[c]1ccccc1 [(4), Triphenylbismuth dichloride]	34.03	4.67

From publication PMC3677620, “Cytotoxicity and In Vitro Antileishmanial Activity of Antimony (V), Bismuth (V), and Tin (IV) Complexes of Lapachol” (Bioinorganic Chemistry and Applications, 2013)
